Paper PMC6283646, “Identification and binding mode of a novel Leishmania Trypanothione reductase inhibitor from high throughput screening” (PLoS Neglected Tropical Diseases, 2018)

Amino acid sequences for entries named in this document (tags omitted). Residues count along the entry.
UniProt A4HSF7, 1-491: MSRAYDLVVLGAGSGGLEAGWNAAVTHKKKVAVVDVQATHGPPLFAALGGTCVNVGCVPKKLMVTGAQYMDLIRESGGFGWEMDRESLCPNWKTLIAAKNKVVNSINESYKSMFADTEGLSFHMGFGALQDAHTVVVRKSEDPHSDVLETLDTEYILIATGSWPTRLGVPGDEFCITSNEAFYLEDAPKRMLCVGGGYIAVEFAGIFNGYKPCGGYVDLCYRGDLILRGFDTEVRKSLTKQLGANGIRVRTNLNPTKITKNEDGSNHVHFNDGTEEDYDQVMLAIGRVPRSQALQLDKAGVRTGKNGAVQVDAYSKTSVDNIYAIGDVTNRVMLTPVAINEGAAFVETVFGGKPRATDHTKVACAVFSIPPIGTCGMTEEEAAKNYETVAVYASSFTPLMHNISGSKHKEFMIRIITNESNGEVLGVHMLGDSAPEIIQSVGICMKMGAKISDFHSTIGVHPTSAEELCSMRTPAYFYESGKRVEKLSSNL
UniProt P00390, 44-522 limits assumed: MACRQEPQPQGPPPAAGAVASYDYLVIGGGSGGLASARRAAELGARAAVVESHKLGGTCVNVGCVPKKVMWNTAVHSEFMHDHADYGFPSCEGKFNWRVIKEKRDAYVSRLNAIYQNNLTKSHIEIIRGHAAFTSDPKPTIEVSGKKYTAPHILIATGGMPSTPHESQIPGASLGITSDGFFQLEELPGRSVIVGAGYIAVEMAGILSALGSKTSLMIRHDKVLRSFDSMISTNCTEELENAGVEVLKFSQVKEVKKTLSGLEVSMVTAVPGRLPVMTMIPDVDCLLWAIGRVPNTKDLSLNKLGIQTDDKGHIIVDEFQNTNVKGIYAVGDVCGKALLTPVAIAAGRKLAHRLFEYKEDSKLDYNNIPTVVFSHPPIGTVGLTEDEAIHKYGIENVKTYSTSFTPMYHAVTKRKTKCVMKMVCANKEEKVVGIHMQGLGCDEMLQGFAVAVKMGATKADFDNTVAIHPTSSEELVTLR

Assays:
L. infantum TR = L. infantum TR (Leishmania infantum, UniProt A4HSF7); test: Luminescence-based (NADPH-Glo) TR enzymatic assay; conditions: read-out: TR assay IC50; n=3
Source text: (§1) L. infantum TR was cloned and purified as previously described.[9, 28] Bovine serum albumin (BSA), NADPH, auranofin, hGR, oxidized glutathione (GSSG) and DTNB were purchased from Sigma-Aldrich (St. Louis, MO); oxidized trypanothione (TS2) was purchased from Bachem (Bubendorf, Switzerland); the NADPH-Glo kit was purchased from Promega (Madison, WI, U.S.A.). Compounds, dissolved in DMSO, were transferred to 384-well white plates (Greiner Bio One, Frickenhausen, Germany) using the acoustic droplet ejection technology (ATS-100, EDC Biosystems, U.S.A.) to reach the desired final concentration. The TR enzymatic reaction was performed by addition of 0.1 nM TR, 12.5 μM NAPDH, 15 μM TS2 in 50 mM HEPES (pH 7.4), 40 mM NaCl, 0.01% BSA in a final volume of 15 μL. After 60 min of incubation at room temperature, an equal volume of NADPH-Glo reagent was added and the luminescent signal was acquired by an EnVision plate reader (PerkinElmer, Waltham, MA, U.S.A.). […] In addition, in order to make sure that the production of a reducing agent (i.e. T(SH)2) by the TR activity was not going to interfere with the assay, and in absence of T(SH)2 as purified reagent, the effect of DTT and GSH was tested on the NADPH-Glo reaction resulting in no interference at concentrations relevant for the current setup (S2 Fig). The hGR assay was performed by addition of 0.5 nM hGR, 10 μM GSSG, 20 μM NADPH in 50 mM HEPES (pH 7.4), 40 mM NaCl, 0.01% BSA in a final volume of 15 μL. After 30 min incubation at room temperature 15 μl of NADPH-Glo kit was added to reveal the signal. The 5,5′-dithiobis(2-nitrobenzoic acid) (DTNB) assay was performed using 2 nM TR, 100 μM NADPH, 4 μM TS2 and 200 μM DTNB in 40 mM HEPES (pH 7.4), 1 mM EDTA, 0.01% BSA and 0.05% tween-20 in a final volume of 50 μl. The absorbance signal (412 nm) was acquired 15 minutes post incubation at room temperature using the plate reader (Safire2, Tecan, Switzerland). Results were analyzed using Prism software (GraphPad, San Diego, CA, U.S.A.) and Vortex (Dotmatics, Bioshops Stortford, UK). Dose-response curves were fitted by four-parameter logistic regression.

[1] = target: human glutathione reductase (hGR) (Homo sapiens, UniProt P00390); test: hGR assay (NADPH-Glo); assay type: biochemical; conditions: read-out: hGR assay IC50; n=3
Source text: as §1

SMILES	IC50 (L. infantum TR) [µM]	IC50 [1] [µM]
CN(C)CCC(=O)c1ccc2ccccc2c1	9.46	31
O=C(O)c1ccc(NCCC(=O)c2cc3ccccc3o2)cc1	28.9	> 85
CCc1ccc(C(=O)CCN(C)C)cc1	4.33	> 85
O=C(CCN1CCCC1)c1ccc2ccccc2c1	23.1	> 85
O=C(CCNc1ccc(C(=O)N2CCCCC2)cc1)c1cccc([N+](=O)[O-])c1	28.9	> 85
CN(C)CCC(=O)c1ccc(NS(C)(=O)=O)cc1	31.3	> 85
